In US20120207733A1 (priority 2011, published 2012):

Target: SNAP-25 (endogenous, human cell lines) (human) (UniProt P60880)
Assay: cell-based or functional assay

BoNT/A (enzyme)
Lowest Concentration and Earliest Time for Cleavage Detection, LNCaP cells: 50 nM
Lowest Concentration and Earliest Time for Cleavage Detection, MCF-7 cells: 1.1 nM
